A mixed list of measured activities; the numbers were collected in NIAID ChemDB.

Common to all: cytotoxicity tests; endpoint: CC50

An empty or dashed field is not shown. CCn is the concentration with n% toxicity to the cells. Rows are shuffled and stem from different studies.

| compound | cell line | read by | value |
|---|---|---|---|
| NC(=O)c1[nH]c2c(c1N)C1=C(CCC/C1=C\c1ccncc1)C(c1ccncc1)S2 | MGC-803 | MTT | >50 µM |
| CC1=CSC2=NC(/C=C/c3ccccc3Cl)=C(C(=O)/C=C/c3ccccc3Cl)C(c3ccccc3)N12 | C1008 (Vero cells) | resazurin | 206 µg/mL |
| CCn1c(-c2ccco2)cc(=O)c2cc(C(C)C)ccc21 | HeLa S3 | MTT | >20 µg/mL |
| C=CCOC1=CS(=O)(=O)OC1(CC)Cc1ccccc1 | HEL fibroblasts |  | >200 µM |
| NC(=S)Nc1cccc(OCCCCCOc2ccc(Br)cc2)c1 | Ava5-EG(delta4AB)SEAP | MTS | >1 µM |
| Nc1cc(OC[C@H]2CC[C@@H](CO)O2)nc(N)n1 | L1210 |  | >250 µM |
| CN1CCN(c2ccnc3nc(CN(CCCCN)Cc4c(N)cccc4Cl)[nH]c23)CC1 | C8166 | MTT | >10 µM |
| CCOC(=O)c1[nH]c2c(c1NC(N)=S)C1=C(CCC/C1=C\c1ccncc1)C(c1ccncc1)S2 | CNE-2 | MTT | >50 µM |
| C1C[N+]2(CCN1)CC[N+]1(CCNCC1)CC2 | K562 |  | >672.7 µg/mL |
| CC(C)N(Cc1cccc(OCCCCCC(=O)OC(=O)O)c1)C(=O)c1ccc(-c2ccoc2)cc1 | RAJI |  | >20 µM |
| Nc1nccc(OC[C@@H]2O[C@H](CO)[C@@H](O)[C@H]2O)n1 | PC-3 |  | >250 µM |
| CN1C[C@H](O)[C@@H](O)[C@@H]1CO | T CELLS |  | >100 µg/mL |
| COc1ccc(Cc2cc(C3CCN(C(=O)c4cccc5c4OCO5)CC3)nc(N)n2)cc1 | Jurkat cells (PMA-stimulated) |  | >5 µM |
| O=C(c1c[nH]c2ccccc12)[C@H](O)CO | MCF-7 | MTT | >40 µg/mL |
| COc1ccc(Cc2cc(C3CCN(C(=O)Cc4ccc(OC)c(OC)c4)CC3)nc(N)n2)cc1 | Jurkat cells (PMA-stimulated) |  | >5 µM |
| CN1CCN(c2ccnc3nc(CN(CCCCN)Cc4ncccc4C4CC4)[nH]c23)CC1 | C8166 | MTT | >10 µM |
| CCn1c2c(c(=O)c3cc(C(C)C)ccc31)Cc1ccccc1-2 | HELA-OHIO | MTT | >5 µg/mL |
| CC1=CSC2=NC(/C=C/c3ccccc3Cl)=C(C(=O)/C=C/c3ccccc3Cl)C(c3ccc(Cl)cc3)N12 | C1008 (Vero cells) | resazurin | 430 µg/mL |
| OC[C@H]1O[C@@H](n2ccc3c(-c4ccco4)nc(F)nc32)C(O)C1O | K562 leukemia cells | MTT | 6.18 µM |
| N#C/C(=C(\N)N1CC[N+]2(CC1)CC[N+]1(CCN(/C(N)=C(/C#N)[N+](=O)[O-])CC1)CC2)[N+](=O)[O-] | K562 |  | >328.1 µg/mL |
| COc1ccc(Cc2cc(C3CCN(C(=O)c4ccc5[nH]ccc5c4)CC3)nc(N)n2)cc1 | Jurkat cells (PMA-stimulated) |  | >5 µM |
| Nc1nc(N)nc(OC[C@H]2CC[C@@H](COCc3ccccc3)O2)n1 | L1210 |  | 235 µM |
| S=c1[nH]c2c(c(=S)[nH]1)C1=C(CCC/C1=C\c1ccncc1)C(c1ccncc1)S2 | CNE-2 | MTT | 15.1 µM |
| CCOC(=O)C1=C(CN2CC(F)(F)[C@@H]3[C@H]2CON3C[C@@H](O)C(C)(C)C(=O)O)NC(c2nccs2)=N[C@H]1c1cccc(F)c1Cl | HepG2.2.15 | WST / absorbance | >100 µM |
| O=C(NCCc1ccc2c(n1)NCCC2)Nc1ccccc1Cl | PBMC |  | 50 µM |
| Cc1ccc(-n2c(-c3ccccc3)c(C)c(=O)c3cc(C(C)C)ccc32)cc1 | HELA-OHIO | MTT | >2.5 µg/mL |
| CCO/C=N\C1=C(C#N)C2=C(CCC/C2=C\c2ccncc2)C(c2ccncc2)S1 | MCF-7 | MTT | 49.6 µM |
| CN(Cc1ncccc1CCC#N)Cc1c[nH]c2ccccc12 | C8166 | MTT | >10 µM |
| O=C(NCCc1cccc(-n2cnc3ccccc32)n1)NCc1ccc(Cl)c(Cl)c1 | PBMC |  | 50 µM |
| CCCc1ccc2c(c1)c(=O)c(C)c(-c1ccccc1)n2CC | HeLa S3 | MTT | 6.5 µg/mL |
| CCOC(=O)C1=C(CN2CC(F)(F)[C@@H]3[C@H]2CON3C[C@@H](F)C(C)(C)C(=O)O)NC(c2nc(C)cs2)=N[C@H]1c1cccc(F)c1C | HepG2.2.15 | WST / absorbance | 32.4 µM |
| CC(=O)c1c(O)c2cccnc2n(O)c1=O | HeLa |  | <100 µM |
| CCC1(CC)OS(=O)(=O)C=C1OCc1ccccc1 | HEL fibroblasts |  | >200 µM |
| NC(=S)Nc1cccc(OCCCCCOc2ccc3ncccc3c2)c1 | Ava5-EG(delta4AB)SEAP | MTS | >1 µM |
| CCN(CC)C(=S)Sc1ncnc(N2CC[N+]3(CC2)CC[N+]2(CCN(c4ncnc(SC(=S)N(CC)CC)c4[N+](=O)[O-])CC2)CC3)c1[N+](=O)[O-] | L929 |  | >224.2 µg/mL |
| CCOC(OCC)C(=O)NCCc1ccc(OC)c(OC)c1 | HEK 293 |  | <7.5 µM |
| O=C(Cc1ccccc1)Nc1cc(=O)n(O)c2ncccc12 | HeLa |  | <100 µM |
| CS(=O)c1ccc(Cc2cc(C3CCN(C(=O)c4ccc5c(c4)OCO5)CC3)nc(N)n2)cc1 | Jurkat cells (PMA-stimulated) |  | >5 µM |
| O=C1Cn2c(nc3c(c2=S)C2=C(CCC/C2=C\c2ccncc2)C(c2ccncc2)S3)S1 | MGC-803 | MTT | 46.8 µM |
| O=C(NCCc1ccc2c(n1)NCCC2)Nc1ccc(C(F)(F)F)nc1 | PBMC |  | 5 µM |
| CCOC(=O)CCCCCOc1cccc(CN(C(=O)c2ccc(-c3cccc(OC)c3)cc2)C(C)C)c1 | BJ |  | >20 µM |
| COc1cc(OC[C@H]2CC[C@@H](COCc3ccccc3)O2)nc(N)n1 | CAKI-1 |  | 107 µM |
| O=C(CCc1ccc2c(n1)NCCC2)Nc1ccc(Cl)c(Cl)c1 | PBMC |  | 10 µM |
| NC(=S)Nc1cccc(OCCCCCCc2ccccc2)c1 | Ava5-EG(delta4AB)SEAP | MTS | >1 µM |
| O=C(NCCc1ccc2c(n1)NCCC2)Nc1cccc(Br)n1 | PBMC |  | 5.8 µM |
| Nc1nc(=O)c2ncn([C@@H]3O[C@H](CO)[C@@H](O)[C@H]3O)c2c(=O)[nH]1 | HFF (dividing cells) |  | >100 µM |
| OC[C@H]1O[C@@H](n2ccc3c(-c4cccs4)nc(F)nc32)C(O)C1O | MRC-5 fibroblast | MTT | >150 µM |
| CC(C)N(Cc1cccc(OCCCCCC(=O)OC(=O)O)c1)C(=O)c1ccc(-c2ccc3ccccc3c2)cc1 | BJ |  | >20 µM |
| O=C(NCCc1ccc2c(n1)NCCC2)Nc1ccccc1I | PBMC |  | 7.3 µM |
| COC(=O)C1=C(CN2CC(F)(F)[C@@H]3[C@H]2CON3C[C@H](OC)C(C)(C)C(=O)O)NC(c2nccs2)=N[C@H]1c1cccc(F)c1Cl | HepG2.2.15 | WST / absorbance | >100 µM |
| OC[C@H]1O[C@@H](n2ccc3c(-c4cc5ccccc5o4)nc(Cl)nc32)C(O)C1O | CEM-DNR leukemia cells | MTT | 9.96 µM |
| CCOC(=O)C1=C(CN2CC(F)(F)[C@@H]3[C@H]2CON3C[C@H](O)C(C)(C)C(=O)O)NC(c2nc(C)cs2)=N[C@H]1c1cccc(F)c1C | HepG2.2.15 | WST / absorbance | 80.3 µM |
| OC[C@@H]1CC[C@H](COc2ncnc3nc[nH]c23)O1 | CAKI-1 |  | ≥250 µM |
| CCOC(=O)C1=C(CN2CC(F)(F)[C@@H]3[C@H]2CON3C[C@@H](OC)C(C)(C)C(=O)O)NC(c2nccs2)=N[C@H]1c1cccc(F)c1C | HepG2.2.15 | WST / absorbance | >50 µM |
| CC1=CSC2=NC(/C=C/c3cccc(Cl)c3)=C(C(=O)/C=C/c3cccc(Cl)c3)C(c3ccccc3)N12 | C1008 (Vero cells) | resazurin | 286 µg/mL |
| Cc1cccc(C)c1-c1cccnc1CN(CCCCN)Cc1nc2nccc(N3CCN(C)CC3)c2[nH]1 | C8166 | MTT | >10 µM |
| COc1cc(/C=C/C(=O)C2=C(/C=C/c3cc(OC)c(OC)c(OC)c3)N=C3SC=C(C)N3C2c2ccccc2)cc(OC)c1OC | C1008 (Vero cells) | resazurin | 260 µg/mL |
| CCOC(=O)C1=C(CN2CC(F)(F)[C@@H]3[C@H]2CON3C[C@H](O)C(C)(C)C(=O)O)NC(c2nccs2)=N[C@@H]1c1ccc(Cl)c(F)c1 | HepG2.2.15 | WST / absorbance | >50 µM |
| CCOC(=O)CNC1=C(C#N)C2=C(CCC/C2=C\c2ccncc2)C(c2ccncc2)S1 | CNE-2 | MTT | >50 µM |
| Nc1nc(Cl)cc(OC[C@H]2O[C@H](COCc3ccccc3)[C@@H](OCc3ccccc3)[C@H]2OCc2ccccc2)n1 | CAKI-1 |  | >250 µM |
| CCOC(=O)c1c(O)c2cc(C(=O)N3CCC(CCc4ccccc4)CC3)cnc2n(O)c1=O | HeLa |  | <100 µM |
| COc1ccccc1OCCCCCOc1cccc(NC(N)=S)c1 | Ava5-EG(delta4AB)SEAP | MTS | >1 µM |
| O=C1Sc2nc3c(c(=S)n2C/C1=C/c1ccc(Cl)cc1)C1=C(CCC/C1=C\c1ccncc1)C(c1ccncc1)S3 | CNE-2 | MTT | 17.9 µM |
| Nc1nc(Cc2ccc3c(c2)OCO3)cc(C2CCN(C(=O)c3ccc4c(c3)OCO4)CC2)n1 | Jurkat cells (PMA-stimulated) |  | 0.7 µM |
| O=c1cc(N2Cc3ccc(-c4ccccc4)cc3C2)c2cccnc2n1O | HeLa |  | <100 µM |
| O=C(NCCc1ccc2c(n1)NCCC2)Nc1csc(-c2ccc(C(F)(F)F)cc2)n1 | PBMC |  | 14 µM |
| O=C(CCBr)N1CC[N+]2(CC1)CC[N+]1(CCN(C(=O)CCBr)CC1)CC2 | K562 |  | >353.2 µg/mL |
| CCOC(=O)C1=C(CN2CC(F)(F)[C@@H]3[C@H]2CON3CC(F)(F)C(C)(C)C(=O)O)NC(c2nccs2)=N[C@H]1c1cccc(F)c1C | HepG2.2.15 | WST / absorbance | >50 µM |
| CCC1(Cc2ccccc2)OS(=O)(=O)C=C1OC(c1ccccc1)c1ccccc1 | HEL fibroblasts |  | >200 µM |
| Nc1cccc(-c2cnc3c(c2)c(O)cc(=O)n3O)c1 | HeLa |  | <100 µM |
| NC(=S)Nc1cccc(OCCCCCOc2nccc3ccccc23)c1 | Ava5-EG(delta4AB)SEAP | MTS | >1 µM |
| CCOC(=O)C1=C(CN2CC(F)(F)[C@@H]3[C@H]2CON3C[C@H](O)C(C)(C)C(=O)O)NC(c2nccs2)=N[C@H]1c1ccc(F)c(F)c1C | HepG2.2.15 | WST / absorbance | >50 µM |
| CCOC(=O)COc1ccc(C=O)cc1 | BJ |  | >20 µM |
| CCC1(Cc2ccccc2)OS(=O)(=O)C=C1OCC(=O)OC | HEL fibroblasts |  | >200 µM |
| CCOC(=O)CCCCCOc1cccc(CN(C(=O)c2ccc(-c3ccc4cc[nH]c4c3)cc2)C(C)C)c1 | RAJI |  | >20 µM |
| O=C(NCCc1ccc2c(n1)NCCC2)Nc1ccc(Br)c2ccccc12 | PBMC |  | 2.2 µM |
| Cc1cc2c(O[C@H]3O[C@H](CO)[C@@H](O)[C@H]3O)ccc(O)c2c(=O)o1 | SMMC-7721 | MTT | >40 µg/mL |
| CCNC(=S)Nc1cccc(OCCCCCc2ccccc2)c1 | Ava5-EG(delta4AB)SEAP | MTS | >1 µM |
| OC[C@H]1[C@H](O)[C@H](O)CN1Cc1ccccc1 | T CELLS |  | >100 µg/mL |
| O=C(NCCc1ccc2c(n1)NCCC2)Nc1ccc2c(c1)CCC2 | PBMC |  | 3.8 µM |
| C=C(C)[C@@H]1CCC2(C(=O)NCCC(=O)OCC)CC[C@]3(C)C(CCC4[C@@](C)(CC#N)C(C(C)(C)C(=O)NCCC(=O)OCC)CC[C@]43C)C12 | MS | MTT | >100 µM |
| O=C1CCn2c(nc3c(c2=S)C2=C(CCC/C2=C\c2ccncc2)C(c2ccncc2)S3)S1 | CNE-2 | MTT | 42.2 µM |
| CC(C)N(Cc1cccc(OCCCCCC(=O)OC(=O)O)c1)C(=O)c1ccc(-c2cccc(N(C)C)c2)cc1 | BJ |  | >20 µM |
| CCn1c(-c2ccccc2)c(C)c(=O)c2cc(OCC(C)C)ccc21 | HeLa S3 | MTT | >4 µg/mL |
| CC[C@@H]1/C=C(\C)C[C@H](C)C[C@H](OC)[C@H]2O[C@@](O)(C(=O)C(=O)N3CCCC[C@H]3C(=O)O[C@H](/C(C)=C/[C@H]3CC[C@H](O)[C@H](OC)C3)[C@H](C)[C@@H](O)CC1=O)[C@H](C)C[C@@H]2OC | KELA |  | 54 µg/mL |
| COC(=O)C1=C(CN2CC(F)(F)[C@@H]3[C@H]2CON3C[C@@H](OC)C(C)(C)C(=O)O)NC(c2nccs2)=N[C@H]1c1ccc(F)c(F)c1C | HepG2.2.15 | WST / absorbance | 50 µM |
| COC(=O)CCCCCN1C[C@@H](O)[C@H](O)[C@H](O)[C@@H]1C | T CELLS |  | >250 µg/mL |
| NC(=S)Nc1cccc(OCCCCCOc2ccc(-n3cccc3)cc2)c1 | Ava5-EG(delta4AB)SEAP | MTS | >1 µM |

Repeating the first 7 entries:

compound,cell line,read by,value
NC(=O)c1[nH]c2c(c1N)C1=C(CCC/C1=C\c1ccncc1)C(c1ccncc1)S2,MGC-803,MTT,>50 µM
CC1=CSC2=NC(/C=C/c3ccccc3Cl)=C(C(=O)/C=C/c3ccccc3Cl)C(c3ccccc3)N12,C1008 (Vero cells),resazurin,206 µg/mL
CCn1c(-c2ccco2)cc(=O)c2cc(C(C)C)ccc21,HeLa S3,MTT,>20 µg/mL
C=CCOC1=CS(=O)(=O)OC1(CC)Cc1ccccc1,HEL fibroblasts,,>200 µM
NC(=S)Nc1cccc(OCCCCCOc2ccc(Br)cc2)c1,Ava5-EG(delta4AB)SEAP,MTS,>1 µM
Nc1cc(OC[C@H]2CC[C@@H](CO)O2)nc(N)n1,L1210,,>250 µM
CN1CCN(c2ccnc3nc(CN(CCCCN)Cc4c(N)cccc4Cl)[nH]c23)CC1,C8166,MTT,>10 µM